{"source": "paper PMC9511408", "about": "“Ion selectivity and gating behavior of the CorA-type channel Bpss1228” (Frontiers in Chemistry, 2022)", "biological_target": "the molecule itself", "assay": "SEC"}
{"protein": "Bpss1228 (natural protein) MKPEMIIQTYGADTSGMVCGFRFAPDSAGEPVDAGVAAEWAAGRGARPDEFLWLHFNLAHGASERWMRAHLDLPETFHEFLREGSHSTRIEQQDGVLRAVVNDVMFSLDLEASEIATMWAYVDRRMMVTARAKPLRSIDTLRESVRQGERFRSPAELLIHLLRDQADLMMHIVRRASTDVDRIEDRFLSERLSANRGQLSAMRRTLTRLQRMLAPEPGSIFRLLAKPPAWLLSADVQELRESTEEFSVVLADLAGLIERIKLLQEEIASRLDEQNNRTLFTLTLVTVIALPINIVAGFFGMNVGGIPFSENKHGFWMMVLLVAGFTALAAWWTFWRRGDR", "values": [{"measurement": "stoichiometry N", "value": 5}]}
